Human monoclonal antibodies against the spike receptor-binding domain (heavy:light variable regions). IC50 against pseudoviruses bearing the spike of naturally observed variants; lower = stronger; >10 µg/ml means not reached at the top dose. No active / inactive call. The stated detection limit is 0.0005 µg/ml; values near or below 0.001 µg/ml lie at the floor of the assay.
B1: BD55-5267 (protein)
chain 1: QVQLQESGPGLVKPSGTLSLTCAVSGGSISSSNWWSWVRQPPGKGLEWIGEIYHSGSTNYNPSLKSRVTISVDKSKNKFSLKLSSVTAADTAVYFCARAGWIESGYDAFVGYFDYWGQGTLVTVSS
chain 2: DIQMTQSPSSLSASVGDRVTITCRASQGISSSLAWYQQKPGKAPDLLLYAASGLESGVPSRFSGSGSGTDFTLSISSLQPEDFATYYCQQYYSPPRTFGQGTKLEIK
B2: BD55-5271 (protein)
chain 1: QVTLKESGPVLVKPTETLTLTCTVSGISLNNARMAVSWIRQPPGKALEWLAHILSNDEKSFSKSLTSRLTISKDSSKNQVVLRLTNMDPVDTGTYYCARIVYDSSSYYYSGDNWFDPWGQGTQVTVSS
chain 2: SYELTQPPSVSVSPGQTARITCTGDAFPNQYAYWYQQKSGQAPVLVIYKDSERPSGIPERFSGSSAGTTVTLTISGVQAEDEADYYCQSADSRGVVFGGGTKVTVL
B3: BD55-5284 (protein)
chain 1: EVQLVESGGGLVQPGGSLRLSCGASGFTLSNYAMHWVRQAPGKGLEYVASITSNGVGAFYADSVKGRFTISRDNSKNTLYLQMGGLREEDMAVYYCAREGIAAFYLYFDLWGRGTLVTVSS
chain 2: DIQMTQSPYSLSASVGDRITITCRASQSIGSYLNWYQQKVGKAPKLLVYGASNLQSGVPSRFSGSGSGTDFTLTISSLQSEDFATYFCQQSYITPQYTFGQGSKVEMK
B4: BD55-5311 (protein)
chain 1: EVQLVQSGGGLVQPGGSLRLSCAASGFIFNTYAMHWVRQSPGKGLEFVSSITNNGGGTFYADSVKGRFTVSRDNSKNTLYLQVGSLRAEDLAVYYCARESRVVMDTTLDYWGQGTLVIVSS
chain 2: DIQMTQSPSSLSASVGDRVTITCRASQSIARFLNWYQLRPGKAPKLLIYGASNLQGGVPSRFSGSGSGTEFTLTISGLQPEDFATYYCQQSYISPQYTFGQGTKLEIK
B5: BD55-5320 (protein)
chain 1: VQLVESGGGFVQPGGSLRLSCAASGFTISDFEMNWVRQAPGRELEWVSYISRSGTTIHYADSVRGRFTISRDSAENSLFLQMNSLSAEDTAVYYCARETDPCGGDCDPGAKYYYYYGMDVWGLGTTVIVSS
chain 2: DIQMTQSPSSVSASVGDRVTITCRASQDIRKWLAWYQQKPGKAPKLLIFDASSLQSGVPSRFSGSGSGTHFTLTISNLQPEDFATYYCQQAHSFPPRSFGQGTKLEI
B6: BD55-5323 (protein)
chain 1: EVHLVESGGGLVKPGGSLRLSCAASGFTFSSYTMNWVRQAPGKGLEWVSSVSGSTTFIFYADSVKGRFTISRDNAKNSLFLQMNSLRVEDTAVYYCARNYDILTPYSDAEYFHHWGQGTLVTVSS
chain 2: EIVLTQSPATLSLSPGERATLSCRASQSVSSNLAWYQQKPGQAPRLLIYDASNRATGIPGRFSGSGSGTDFTLTISSLEPEDFAVYYCQQRSNWPPYTFGQGTKLEIK

What was measured:
Assay in all cases: pseudovirus neutralization IC50; higher = weaker neutralization
[1] = molecular target: SARS-CoV-2 Omicron BA.1 spike pseudovirus
Experimental: (§1)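 Single-round VSV luciferase pseudovirus mixed with antibody dilutions for 1 h and put on Huh-7 cells for about a day; IC50 from the dose curve.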

[2] = molecular target: SARS-CoV-2 Omicron BA.2 spike pseudovirus
Experimental: as §1

[3] = molecular target: SARS-CoV-2 Omicron BA.2.75 spike pseudovirus
Experimental: as §1

[4] = molecular target: SARS-CoV-2 Omicron BA.5 spike pseudovirus
Experimental: as §1

[5] = molecular target: SARS-CoV-2 Omicron BQ.1.1 spike pseudovirus
Experimental: as §1

[6] = molecular target: SARS-CoV-2 Omicron XBB spike pseudovirus
Experimental: as §1

[7] = molecular target: SARS-CoV-2 early D614G spike pseudovirus
Experimental: as §1

Row | Binder | pseudovirus neutralization IC50 [1] | pseudovirus neutralization IC50 [2] | pseudovirus neutralization IC50 [3] | pseudovirus neutralization IC50 [4] | pseudovirus neutralization IC50 [5] | pseudovirus neutralization IC50 [6] | pseudovirus neutralization IC50 [7]
1 | B1 | > 10 µg/mL | > 10 µg/mL | > 10 µg/mL | > 10 µg/mL | > 10 µg/mL | > 10 µg/mL | 0.122 µg/mL
2 | B2 | > 10 µg/mL | > 10 µg/mL | > 10 µg/mL | > 10 µg/mL | > 10 µg/mL | > 10 µg/mL | 0.977 µg/mL
3 | B3 | > 10 µg/mL | > 10 µg/mL | > 10 µg/mL | > 10 µg/mL | > 10 µg/mL | > 10 µg/mL | 2.09 µg/mL
4 | B4 | > 10 µg/mL | > 10 µg/mL | > 10 µg/mL | > 10 µg/mL | > 10 µg/mL | > 10 µg/mL | > 10 µg/mL
5 | B5 | 4.74 µg/mL | 3.45 µg/mL | 4.33 µg/mL | > 10 µg/mL | > 10 µg/mL | > 10 µg/mL | 0.858 µg/mL
6 | B6 | > 10 µg/mL | > 10 µg/mL | > 10 µg/mL | > 10 µg/mL | > 10 µg/mL | > 10 µg/mL | 1.76 µg/mL

— the supplement of paper PMC9931576
